Compound potency records, mixed from different reports. Data source: NIAID ChemDB in PubChem.

Common to all: whole-cell or culture tests; species: Mycobacterium tuberculosis

For "inactive" no cut-off is given. A number after MIC or MFC names an inhibition level or a share of isolates. Inhibition is in % at the dose shown (toxicity tests: loss of growth or viability). MIC bound: limit read from a one-dose screen. Neighbouring rows are from separate reports. ECn is the concentration giving n% inhibition of infection, replication or growth. Blank or dashed fields: not listed here.

compound,method,tested at,cell line,read-out,strain,setting,result
C/C(=N\NC(=O)c1ccncc1)c1ccccc1F,,,,MIC,16PI,,>20 µg/mL
COC(=O)c1cc(=O)n(-c2ccc3nn(C)nc3c2)cc1C(=O)OC,resazurin,6.25 µg/mL,,inhibition,H37Rv,,6%
CO/C(=N\N=C\c1cccc(C(C)(F)F)c1)c1ccncc1,,,,MIC,H37Rv,,>20 µg/mL
CN1CCN=C1c1ccc(NC(=O)Nc2ccc(NC(=O)Nc3ccc(C4=NCCN4C)cc3)cc2)cc1.Cl.Cl,BACTEC,128 µg/mL,,inhibition,H37Rv,,89%
O=C1NC(Nc2ccc(Cl)cc2)=N/C1=C\c1ccc(Cl)cc1Cl,,12.5 µg/mL,,inhibition,H37Rv,,100%
CCOC(=O)N1CCN(c2cc(-c3ccccc3)c3cccnc3n2)CC1,,12.5 µg/mL,,inhibition,H37Rv,,0%
C1CCNCC1.S=C(S)N1CCCCC1,,,,MIC,RMP-R,,3.1 µg/mL
COc1cc2ccc(Br)cc2cc1[C@@H](c1ccc(Cl)cc1)[C@@](O)(CCN(C)C)c1ccccc1,resazurin,,,MIC,Clinical isolate,,0.307 µg/mL
CC(=O)Nc1ccc(/C=N/NC(N)=S)cc1,,,,MBC,Isolate B drug-susceptible,,30 µg/mL
O=[N+]([O-])[O][Ga]([O][N+](=O)[O-])[O][N+](=O)[O-],,,,EC50,Erdman,inside macrophages,<500 µM
O=C1NC(NNC(=O)c2ccncc2)=N/C1=C\c1ccccc1Cl,resazurin,,VERO,EC50,H37Rv,,<12.5 µg/mL
CCOC(=O)c1cc(C2CCN(Cc3ccccc3)C2=O)c(C(=O)C(=[N+]=[N-])C(C)=O)[nH]1,resazurin,,,MIC bound,H37Rv,,>6.25 µg/mL
O=C1NC(NNC(=O)c2ccncc2)=N/C1=C\c1cccc(Cl)c1,,,,MIC,Ethambutol-resistant,,≤0.39 µg/mL
CCOC(=O)N1CCN(c2cc(-c3ccccc3)c3ccc(N)nc3n2)CC1,,,,EC50,H37Rv,,<12.5 µg/mL
O=C1c2nc3n(c2C(=O)c2c1nc1n2CCC1)CCC3,BACTEC,12.5 µg/mL,,inhibition,H37Rv,,51%
CCCCCCn1c(-c2ccc(Cl)cc2)cc(CN2CCN(C)CC2)c1C,,,,MIC,103471,,8 µg/mL
CO/C(=N\N=C\c1ccc(F)cc1)c1ccncc1,,,,MIC,16PI,,>20 µg/mL
O=C1c2cc(Cl)ccc2-n2c1nc1cc(N3CCCCC3)ccc1c2=O,,,,MIC,H37Rv,,0.13 µg/mL
NNC(=O)c1ccncc1,resazurin,,,MIC,H37Rv,,0.047 µg/mL
CO[C@H]1/C=C/O[C@@]2(C)Oc3c(C)c(O)c4c(O)c(c(/C=N/N5CCN(C/C=C/c6ccccc6)CC5)c(O)c4c3C2=O)NC(=O)/C(C)=C\C=C\[C@H](C)[C@H](O)[C@@H](C)[C@@H](O)[C@@H](C)[C@H](OC(C)=O)[C@@H]1C,,,,MBC,3113 (rifampin-sensitive),,0.1 µg/mL
C[N+](C)(C)NP(=O)(N[N+](C)(C)C)c1ccccc1,BACTEC,,,MIC bound,H37Rv,,>6.25 µg/mL
CCN(CC)CCCN=c1cc2n(-c3ccc(Cl)cc3)c3ccccc3nc-2cc1Nc1ccc(Cl)cc1,,,,MIC,H37Rv,,0.5 µg/mL
O=C1c2cc(I)ccc2-n2c1nc1ncccc1c2=O,,,,MIC,TN772RFLF:AB (MDR),,0.06 µg/mL
NC(=O)c1cccc2c(=O)c3ccccc3oc12,,32 µg/mL,,inhibition,H37Rv,,inactive
CC(C)C(NC(=O)C(Cc1c[nH]c2ccccc12)NC(=O)OC(C)(C)C)C(=O)NN,BACTEC,12.5 µg/mL,,inhibition,H37Rv,,0%
Cc1cc(CN2CCOCC2)c(C)[nH]1,,,,MIC,103471,,>64 µg/mL
O=C1c2cc(F)ccc2-n2c1nc1c(F)cccc1c2=O,,,,MIC,H37Rv,,0.13 µg/mL
Cc1c(CN2CCN(C)CC2)c(CN2CCN(C)CC2)c(-c2ccc(Cl)cc2)n1Cc1ccccc1,,,,MIC,103471,,>64 µg/mL
NCC[C@H](O)C(=O)N[C@@H]1C[C@H](N)[C@@H](O[C@H]2O[C@H](CN)[C@@H](O)[C@H](O)[C@H]2O)[C@H](O)[C@H]1O[C@H]1O[C@H](CO)[C@@H](O)[C@H](N)[C@H]1O,,,,MIC,H37Rv,,1 µg/mL
C/C(=N\NC(=O)c1ccncc1)c1ccc(F)cc1,,,,MIC,6 PI,,>20 µg/mL
O=C(NC(C/C=C/c1ccc2c(c1)C(=O)c1nc3cc(Cl)cc(Cl)c3c(=O)n1-2)C(=O)O)OCC1c2ccccc2-c2ccccc21,,,,MIC,H37Rv,,25 µg/mL
O=C(O)c1ccc2c(=O)c3ccccc3oc2c1C(=O)O,,32 µg/mL,,inhibition,H37Rv,,inactive
CCOC(=O)N1CCN(c2cc(-c3ccccc3)c3ccc(NC(C)=O)nc3n2)CC1,,,,EC50,H37Rv,,>12.5 µg/mL
CO/C(=N\N=C\c1ccccc1F)c1ccncc1,,,,MIC,16PI,,>20 µg/mL
CCCCCCCCc1ccc2c(c1)C(=O)c1nc3ccncc3c(=O)n1-2,,,,MIC,TN1040RFLP:N (DRUG sensitive),,≤0.015 µg/mL
CO[C@H]1/C=C/O[C@@]2(C)Oc3c(C)c(O)c4c(O)c(c5c(c4c3C2=O)NC2(CCN(CC(C)C)CC2)N=5)=NC(=O)/C(C)=C\C=C\[C@H](C)[C@H](O)[C@@H](C)[C@@H](O)[C@@H](C)[C@H](OC(C)=O)[C@@H]1C,,,,MBC,131-4,,0.125 µg/mL
Cc1c(CN2CCSCC2)cc(-c2ccc(F)cc2)n1-c1ccc(Cl)cc1,,,,MIC,103471,,2 µg/mL
O=C(O)Cn1[se]c2ccccc2c1=O,BACTEC,,,MIC bound,H37Rv,,>12.5 µg/mL
Cc1c(CN2CCOCC2)cc(-c2ccc(Cl)cc2)n1C1CCCCC1,,,,MIC,103471,,8 µg/mL
NC[C@@H]1O[C@H](O[C@H]2[C@@H](O)[C@H](O[C@@H]3[C@@H](O)[C@H](N)C[C@H](N)[C@H]3O[C@H]3O[C@H](CN)[C@@H](O)[C@H](O)[C@H]3N)O[C@@H]2CO)[C@H](N)[C@@H](O)[C@@H]1O,,,,MIC,H37Rv,,8 µg/mL
O=Cc1cccc(/C=N/NC(=O)c2ccncc2)c1,BACTEC,,,MIC99,katG (S315T),,>39.5 µM
COC(=O)c1ccc2c(=O)c3cc([N+](=O)[O-])ccc3oc2c1C(=O)OC,,2 µg/mL,,inhibition,H37Rv,,inactive
COc1cc2ccc(Br)cc2cc1[C@@H](c1ccc(Cl)cc1)[C@@](O)(CCN(C)C)c1ccccc1Br,resazurin,,,MIC,Clinical isolate,,0.348 µg/mL
C/C(=N\NC(=O)c1ccncc1)c1cccc(C(F)(F)F)c1,,,,MIC,6 PI,,>20 µg/mL
CC(C)N=c1cc2n(-c3ccc(Cl)cc3)c3ccccc3nc-2cc1Nc1ccc(Cl)cc1,,,,MIC,2218 (SM INH THA-RES),,0.5 µg/mL
CO[C@H]1/C=C/O[C@@]2(C)Oc3c(C)c(O)c4c(O)c(c(/C=N/N5CCN(C)CC5)c(O)c4c3C2=O)NC(=O)/C(C)=C\C=C\[C@H](C)[C@H](O)[C@@H](C)[C@@H](O)[C@@H](C)[C@H](OC(C)=O)[C@@H]1C,resazurin,,,MIC,H37Rv,,0.04 µg/mL
COc1cc(-c2ccc3c(c2)OCO3)nc2ccccc12,,,,MIC,H37Rv,,16 µg/mL
Nc1ccc2c(-c3ccccc3)cc(N(CCO)CCO)nc2n1,,12.5 µg/mL,,inhibition,H37Rv,,15%
O=C1c2cc(F)ccc2-n2c1nc1ncccc1c2=O,,,,MIC,H37Rv,,0.25 µg/mL
C/C(=N/NC(=S)N1CCC(C)CC1)c1nccnc1C,,,,MIC,PAS-R,,1.6 µg/mL
Nc1ccc2c(-c3ccccc3)cc(N3CCNCC3)nc2n1,,12.5 µg/mL,,inhibition,H37Rv,,0%
CO[C@H]1/C=C/O[C@@]2(C)Oc3c(C)c(O)c4c(=O)c(c5oc6cc(N7CCN(CC(C)C)CC7)cc(=O)c6nc5c4c3=C2O)NC(=O)/C(C)=C\C=C\[C@H](C)[C@H](O)[C@@H](C)[C@@H](O)[C@@H](C)[C@H](OC(C)=O)[C@@H]1C,,,,MIC,2230 (rifampin-resistant),,0.1 µg/mL
COc1cc2ccc(Br)cc2cc1[C@@H](c1ccccc1)[C@@](O)(CCN(C)C)c1cccc(Br)c1,resazurin,,,MIC,Clinical isolate,,0.298 µg/mL
c1cnc2c(c1)ccc1cccnc12,BACTEC,12.5 µg/mL,,inhibition,H37Rv,,99%
Cc1cc(-c2cc3c(cc2F)c(=O)c(C(=O)O)cn3C2CC2)cc(C)n1,,,,MIC,1685-6,,0.5 µg/mL
NNC(=O)c1ccccc1,,,,MIC,Mtb C-31,,4 µg/mL
C[N+](C)(C)CC(=O)N/N=c1\cc(C(=O)Nc2ccc(N=O)cc2C#N)oc2cc(O)ccc12.[Cl-],BACTEC,12.5 µg/mL,,inhibition,H37Rv,,11%
N#Cc1ccc2oc3ccccc3c(=O)c2c1,,4 µg/mL,,inhibition,H37Rv,,inactive
COc1ccc(/C(C)=N/NC(=O)c2ccncc2)cc1OC,,,,MIC,H37Rv,,>20 µg/mL
O=C1c2ccccc2-n2c1nc1cc(Cl)cc(Cl)c1c2=O,,,,MIC,H37Rv,,4 µg/mL
CC1(C)O[C@H]2CC(=O)OC[C@]23[C@H]2CC[C@@]4(C)[C@H](c5ccoc5)OC(=O)[C@H]5O[C@]54[C@]2(C)C(=O)C[C@@H]13,BACTEC,,,MIC,H37Rv,,≥128 µg/mL
Nc1ccc2c(-c3ccccc3)cc(=S)[nH]c2n1,,,,EC50,H37Rv,,>12.5 µg/mL
O=C1c2cc(F)ccc2-n2c1nc1c(OCc3ccccc3)cccc1c2=O,,,,MIC,H37Rv,,4 µg/mL
C/C(=N/NC(=S)NCc1ccccc1)c1nccnc1C,,,VERO,MIC,H37Rv,,3.1 µg/mL
Clc1ccc(Nc2cc3nc4ccccc4n(-c4ccc(Cl)c(Cl)c4)c-3cc2=NC2CCNCC2)cc1Cl,,,,MIC,MTB9 (RIF-resistant),,0.5 µg/mL
CCN(CC)C(=S)[S][Bi]([S]C(=S)N(CC)CC)[S]C(=S)N(CC)CC,BACTEC,128 µg/mL,,inhibition,H37Rv,,100%
Cc1ccc2oc3ccccc3c(=O)c2c1,,8 µg/mL,,inhibition,H37Rv,,inactive
CCOC(=O)COC(=O)C1C(C(N)=O)N(CC(=O)OCC)CCN1CC(=O)OCC,BACTEC,,,MIC bound,H37Rv,,>12.8 µg/mL
CC(=O)Nc1ccc2c(-c3ccccc3)cc(N3CCN(C(C)=O)CC3)nc2n1,,12.5 µg/mL,,inhibition,H37Rv,,0%
COc1ccc(N=Nc2ccc(N)nc2N)cc1,BACTEC,,,MIC bound,H37Rv,,>12.5 µg/mL
COC(=O)c1cccc2oc3ccc([N+](=O)[O-])cc3c(=O)c12,,32 µg/mL,,inhibition,H37Rv,,inactive
COc1ccccc1C1OC2=C(Nc3ccc([N+](=O)[O-])cc3N2)C1=O,BACTEC,,,MIC bound,H37Rv,,>12.5 µg/mL
O=C1NC(NNC(=O)c2ccncc2)=N/C1=C\c1ccc(Cl)cc1Cl,resazurin,,,MIC,H37Rv,,>12.5 µg/mL
CO[C@H]1/C=C/O[C@@]2(C)Oc3c(C)c(O)c4c(O)c(c5c(c4c3C2=O)NC2(CCN(CC(C)C)CC2)N=5)=NC(=O)/C(C)=C\C=C\[C@H](C)[C@H](O)[C@@H](C)[C@@H](O)[C@@H](C)[C@H](OC(C)=O)[C@@H]1C,,,,MIC,Strain 1 (STR-resistant),,0.006 µg/mL
CO/C(=N\N=C\c1ccc(OC)c(OC)c1)c1ccncc1,,,,MIC,6 PI,,>20 µg/mL
Nc1ccc2c(-c3ccccc3)cc(=O)[nH]c2n1,,,,EC50,H37Rv,,>12.5 µg/mL
COC(=O)C1=C(N)OC(C)(C)C1c1ccc(Cl)cc1,BACTEC,12.5 µg/mL,,inhibition,H37Rv,,-7%
C/C(=N\NC(=O)c1ccncc1)c1cccc(F)c1,,,,MIC,H37Rv,,>20 µg/mL
NC[C@H]1O[C@H](O[C@H]2[C@H](O)[C@@H](O[C@H]3O[C@H](CO)[C@@H](O)[C@H](N)[C@H]3O)[C@H](N)C[C@@H]2N)[C@H](O)[C@@H](O)[C@@H]1O,,,,MIC,H37Rv,,2 µg/mL
NN1CC(=O)NC1=O,BACTEC,12.5 µg/mL,,inhibition,H37Rv,,-8%
COC(=O)c1cccc2oc3ccccc3c(=O)c12,,32 µg/mL,,inhibition,H37Rv,,inactive
Cc1c(CN2CCN(C)CC2)c(CN2CCN(C)CC2)c(C)n1C1CCCCC1,,,,MIC,103471,,>64 µg/mL
CCOP(=O)(Cc1ccc(CP(=O)(OCC)OCC)n1C)OCC,BACTEC,,,MIC bound,H37Rv,,>6.25 µg/mL
O=C1c2cc([N+](=O)[O-])ccc2-n2c1nc1ncccc1c2=O,,,,MIC,H37Rv,,0.25 µg/mL